PubChem BioAssay AID624099 – ICCB-Longwood, 2012
Purpose: 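Host factors E2 relies on to silence an HPV18 LCR reporter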 (primary screen). Cell system: human C33A cervical carcinoma cells (HPV-negative) stably expressing BPV1 E2 and an HPV18 LCR luciferase reporter. Reagent: siRNA pool against human genes, 40 nM. Duration: 72 h. Detection: 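Per-well luciferase luminescence, z-scored on each plate against the plate mean and SD with control wells left out, then averaged across three replicate plates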. Scale: mean z-score and z-score: higher = stronger reporter signal, weaker E2 silencing. Active means: 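Hit if mean z-score reaches 2 and two or more of three replicate z-scores also reach 2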.
Shown is a random part of about 21,000 deposited reagents. 497 of all reagents (2.4%) count as active. 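Higher z means weaker E2 silencing; only reporter increases were scored, and knock-downs that hurt cell survival may mask genuine repressor factors.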 No sequences are given here.

target gene,mean z-score,"z-score, replicate A","z-score, replicate B","z-score, replicate C",activity call
DLX4 (GeneID 1748),-0.48,-0.02,-0.68,-0.74,inactive
LOC390488 (retired record) (GeneID 390488),0.09,-0.05,0.1,0.22,inactive
ERP27 (GeneID 121506),-0.17,0.08,-0.18,-0.42,inactive
XAGE2 (GeneID 9502),0.72,0.87,0.68,0.61,inactive
ADH5 (GeneID 128),0.77,0.67,0.52,1.13,inactive
OR6M1 (GeneID 390261),0.29,0.47,-0.02,0.42,inactive
SLC19A2 (GeneID 10560),0.86,0.78,0.85,0.95,inactive
MORN3 (GeneID 283385),0.29,0.24,0.72,-0.09,inactive
LOC400876 (retired record) (GeneID 400876),-0.39,-0.23,-0.44,-0.52,inactive
TMEM125 (GeneID 128218),1.12,1.07,1.16,1.14,inactive
RPL18AP6 (GeneID 285053),-0.19,-0.25,0.23,-0.54,inactive
SRGAP2 (GeneID 23380),0.18,0.22,0.19,0.14,inactive
CCDC126 (GeneID 90693),-0.58,-0.48,-0.62,-0.64,inactive
VAV3 (GeneID 10451),-0.66,-0.95,-0.75,-0.28,inactive
GPR156 (GeneID 165829),-1.44,-1.18,-1.6,-1.54,inactive
LRRC74BNL (GeneID 113691),0.45,0.48,0.19,0.68,inactive
SAA2 (GeneID 6289),-0.12,-0.41,0.07,-0.01,inactive
NSD2 (GeneID 7468),0.61,0.54,0.35,0.94,inactive
LOC388337 (retired record) (GeneID 388337),0.09,0.48,-0.12,-0.1,inactive
ARRB2 (GeneID 409),0.2,0.31,0,0.31,inactive
MTMR8 (GeneID 55613),0.35,0.29,0.2,0.55,inactive
MMS19 (GeneID 64210),0.91,0.74,0.91,1.08,inactive
FMO2 (GeneID 2327),-0.73,-0.82,-0.62,-0.75,inactive
HDGFL3 (GeneID 50810),0.04,0.32,0.05,-0.26,inactive
GUSBP1 (GeneID 728411),-0.32,0.08,-0.77,-0.26,inactive

Next part (3 carried over from the part before).
target gene,mean z-score,"z-score, replicate A","z-score, replicate B","z-score, replicate C",activity call
FMO2 (GeneID 2327),-0.73,-0.82,-0.62,-0.75,inactive
HDGFL3 (GeneID 50810),0.04,0.32,0.05,-0.26,inactive
GUSBP1 (GeneID 728411),-0.32,0.08,-0.77,-0.26,inactive
CD70 (GeneID 970),-0.54,-0.5,-0.3,-0.84,inactive
SHC3 (GeneID 53358),0.69,0.65,1.06,0.35,inactive
PRR4 (GeneID 11272),1.51,1.56,1.6,1.38,inactive
PPP1R16A (GeneID 84988),-1.46,-1.38,-1.88,-1.13,inactive
CDC42 (GeneID 998),-0.32,-0.33,-0.3,-0.32,inactive
CCDC148 (GeneID 130940),0.87,0.84,1.02,0.76,inactive
RCAN2 (GeneID 10231),1.2,1.52,0.95,1.13,inactive
RAB5B (GeneID 5869),-1.42,-1.65,-1.35,-1.26,inactive
MMP17 (GeneID 4326),-0.19,-0.1,-0.26,-0.21,inactive
NPY1R (GeneID 4886),0.29,0.1,0.31,0.47,inactive
TRH (GeneID 7200),-0.09,-0.03,-0.14,-0.1,inactive
AQP4-AS1 (GeneID 147429),-1.82,-2.02,-1.46,-1.99,inactive
ADORA1 (GeneID 134),-1.4,-1.31,-1.54,-1.35,inactive
NID1 (GeneID 4811),-0.75,-0.44,-0.77,-1.05,inactive
MCAM (GeneID 4162),0.55,0.79,0.65,0.22,inactive
GOLGA6A (GeneID 342096),0.06,0.16,0.05,-0.02,inactive
ARSA (GeneID 410),0.91,0.65,1.32,0.76,inactive
GLI3 (GeneID 2737),-1.14,-0.82,-1.38,-1.22,inactive
SELENON (GeneID 57190),-0.31,-0.22,-0.27,-0.43,inactive
C9orf152 (GeneID 401546),0.59,0.67,0.69,0.4,inactive
ZBTB12 (GeneID 221527),0.94,0.65,1.02,1.15,inactive
GNPNAT1 (GeneID 64841),-0.42,-0.44,-0.27,-0.54,inactive
GAPDHS (GeneID 26330),1.11,1.09,1.06,1.17,inactive
IL38 (GeneID 84639),1.23,1.23,1.21,1.24,inactive
POLR2J3 (GeneID 548644),1,0.49,0.92,1.59,inactive
PLEKHG6 (GeneID 55200),0.34,0.6,0.23,0.21,inactive
HSD17B12 (GeneID 51144),0.05,-0.06,0.71,-0.49,inactive
PHF12 (GeneID 57649),0.81,1.07,0.61,0.77,inactive
C12orf56 (GeneID 115749),0.35,0.47,0.18,0.41,inactive
MRPS12 (GeneID 6183),0.25,0.02,0.42,0.33,inactive
TLR5 (GeneID 7100),0.31,0.06,0.79,0.06,inactive
ZBTB10 (GeneID 65986),0.42,0.45,0.4,0.4,inactive
AFAP1L1 (GeneID 134265),0.5,0.46,0.44,0.59,inactive
FOXE3 (GeneID 2301),0,0.07,-0.09,0.01,inactive
LOC401385 (retired record) (GeneID 401385),0.13,0.12,,0.15,inactive
NAAA (GeneID 27163),-0.08,0.53,-0.07,-0.71,inactive
RPA2 (GeneID 6118),-0.11,-0.05,-0.17,-0.1,inactive
LPGAT1 (GeneID 9926),-0.09,0.1,-0.22,-0.17,inactive
GRAMD1B (GeneID 57476),-0.27,-0.29,-0.04,-0.47,inactive
SLITRK2 (GeneID 84631),-0.19,0.1,0.21,-0.9,inactive
LOC133993 (retired record) (GeneID 133993),-0.24,-0.35,-0.27,-0.11,inactive
TAF11L6 (GeneID 391747),0,0.09,-0.12,0.03,inactive
MAGEA10 (GeneID 4109),-0.57,-0.82,-0.37,-0.51,inactive
NFATC3 (GeneID 4775),-0.75,-0.73,-0.86,-0.66,inactive
GKN1 (GeneID 56287),-1.38,-1.1,-1.56,-1.49,inactive
EFCAB5 (GeneID 374786),0.1,-0.14,0.25,0.19,inactive
ZC3H12C (GeneID 85463),-0.11,-0.33,0.03,-0.03,inactive
KDM5B (GeneID 10765),-0.46,-0.38,-0.41,-0.6,inactive
